Data: patent publication US20200362303A1, “MAINTENANCE-AND-AMPLIFICATION METHOD AND DIFFERENTIATION INDUCTION METHOD FOR PRIMORDIAL GERM CELLS/PRIMORDIAL GERM CELL-LIKE CELLS” (KYOTO UNIVERSITY, priority 2017, published 2020)

System: PGCLCs induced from BVSCVR ESC (XX)
Assay: BVSC and VR expression by FACS in cultured PGCLC
Format: cell-based, mouse
Settings: added at c3, read at c9; varying concentrations
Method: The PGC/PGCLC expansion medium was constituted of 10% KSR, 2.5% FBS, 0.1 mM NEAA, 1 mM sodium pyruvate, 2 mM L-glutamine, 0.1 mM 2-mercaptoethanol, 100 U/ml penicillin, 0.1 mg/ml […] streptomycin, […] forskolin, and 10 μM rolipram. The entire medium was changed every 2 days from c3. Cytokines/compounds for induction of female fate were provided from c3 to the end of culture. RA and BMP concentrations used were 100 nM and 300 ng/ml, respectively, unless otherwise specified. Brightfield and fluorescence images were captured using an IX73 inverted microscope (Olympus).
The preparation of d4/c0 PGCLC for FACS is described in “ESC culture/induction and PGCLC induction/culture”. To isolate germ cells in vivo, fetal gonads of BVSC, VR or SG mice were cut and processed for FACS according to the procedure described for d4/c0 PGCLC. Culture PGCLC was also prepared by the same method except that, after dissociation, the cells were washed with 0.1% BSA-DMEM containing 100 μg/ml DNase (Sigma-Aldrich), lysed DNA from dead cells was digested to prevent the formation of cell/debris clumps. Fluorescent activity of BV/SG, SC, or DT/VR was detected with FITC, Horizon V500 or PE-Texas Red channels, respectively. FACS data was analyzed using FlowJo or FACS Diva software package.

## BMP2: bone morphogenetic protein 2 cytokine (R&D Systems)
  BVSC and VR expression: down-regulated BV and activated VR
